Experimental findings from patent US10889616B2 (priority 2014, dated 2021) are described below.

The data set in a line: general procedure: solution-phase peptide synthesis; HBTU/DIEA; isobutyl chloroformate/DIPEA. Conditions: conjugation step.

Boc-TAM479 displayed a conjugation yield of 76%.
